The list shows a part of the results, in another mix than the full data. The source made the active and inactive calls. No stated cut-off is given here; in the data, active means inhibition above about 10% (passing the limit was not always enough); inconclusive means no clear call, values can overlap the other calls.

The chains behind the UniProt entries cited, without tags or fusion partners. Where a name states a change or a piece, a line headed by the entry shows the natural chain unless it says otherwise.
UniProt P9WIQ1: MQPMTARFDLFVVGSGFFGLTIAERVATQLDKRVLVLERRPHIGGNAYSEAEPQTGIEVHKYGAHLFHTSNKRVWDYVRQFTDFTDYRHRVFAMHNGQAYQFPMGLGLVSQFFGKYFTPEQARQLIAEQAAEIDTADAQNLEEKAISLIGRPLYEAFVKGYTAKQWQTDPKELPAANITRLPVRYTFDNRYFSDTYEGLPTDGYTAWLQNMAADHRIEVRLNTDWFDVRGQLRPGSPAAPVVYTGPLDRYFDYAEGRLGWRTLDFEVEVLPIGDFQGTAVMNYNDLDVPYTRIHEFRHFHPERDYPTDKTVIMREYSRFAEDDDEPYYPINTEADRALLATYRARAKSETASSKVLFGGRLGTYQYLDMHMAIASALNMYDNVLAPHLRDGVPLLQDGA

This test addresses UDP-galactopyranose mutase (Mycobacterium tuberculosis (strain ATCC 25618 / H37Rv)) (UniProt P9WIQ1). The test can be described thus: M. tuberculosis UGM enzyme inhibitors, primary screen, biochemical, fluorescence polarization, single point (AID 504406). The note with it: purified UGM, fluorescence polarization probe displacement; at 10 µM; hits give high values. In general terms: Fluorescence polarisation rises when a labelled molecule tumbles more slowly, as on binding a larger partner.
The term inhibition denotes the drop in the measured response relative to a control, in per cent. `O=[N+]([O-])c1cc([N+](=O)[O-])c(CCN2CCOCC2)c([N+](=O)[O-])c1`: the inhibition was inactive: 0.672%. On to `Nc1cccc2ccc([As](=O)(O)O)cc12`, for which the inhibition was inactive: -1.83%.

As to `CCN(N=Nc1nonc1N)c1nonc1N`, the inhibition is inactive: -2.9%. As for `O=P(Nc1nc2ccc(Cl)cc2s1)(c1ccccc1)c1ccccc1`, the inhibition is inactive: 0.96%.

In the case of `O=C(O)c1ccccc1[As](=O)(O)O`, the inhibition was inactive: 2.84%. For the compound `CC(=O)Nc1ccc([As](=O)(O)O)cc1`, the inhibition is inactive: 0.384%. For the compound `Cc1ccc(NP(=O)(Oc2ccccc2F)Oc2ccccc2F)nc1`, the inhibition was inactive: -1.59%. With `CN(C(=O)Cc1ccc(Cl)c(Cl)c1)[C@H]1CCCC[C@@H]1N1CCCC1`, the inhibition is inactive: 1.23%. In the case of `CCOP(=O)(Nc1ccccc1)OCC` it was inactive: -1.22%; in that of `Cc1cc(SC(NC(=O)c2ccc(F)cc2)C(Cl)(Cl)Cl)ncn1` (centres undefined), inactive: -0.374%. As to `Cc1c2non([O-])c-2c(C)[n+](=O)[n+]1[O-]`, the inhibition is inactive: -4.11%. With `O=C(NC(Sc1ccncn1)C(Cl)(Cl)Cl)c1ccccc1` (centres undefined), the inhibition is inactive: 0.162%. For `Oc1ccccc1CNc1ccccn1`, the inhibition is inactive: -1.2%.

In the case of `CC(C)CC(=O)NC(Sc1ccc(Cl)cc1)C(Cl)(Cl)Cl` (centres undefined), the inhibition was inactive: -1.4%. In the case of `Nc1cc(N)c2nonc2c1[N+](=O)[O-]` it was inactive: 0.669%; in that of `Cc1ccc(N/C(=N/P(=O)(N2CCOCC2)N2CCOCC2)N2CCOCC2)cc1`, inactive: 5.43%; in that of `CN(C(=O)Cc1ccc(Cl)c(Cl)c1)[C@H]1CCCC[C@H]1N1CCCC1`, inactive: -1.59%. `NC(=O)c1cc([N+](=O)[O-])cc([N+](=O)[O-])c1N`: the inhibition was inactive: -3.17%. In the case of `Clc1ccc(Cl)c(NC2=NCC(CBr)S2)c1` (centres undefined) it was inactive: 2.92%; in that of `CN1CCCC(OC(=O)C(c2ccccc2)c2ccccc2)C1` (centres undefined), inactive: -1.18%. `Cc1ccc(OP(=O)(Nc2nccs2)Oc2ccc(C)cc2)cc1`: the inhibition was inactive: -0.478%.

As for `COc1ccccc1OP(=O)(Nc1ccc(C)cn1)Oc1ccccc1OC`, the inhibition is inactive: -2.32%. As for `CCN(/C(=N/P(=O)(N1CCOCC1)N1CCOCC1)N1CCOCC1)c1ccc(OC)cc1`, the inhibition is inactive: -3.07%. `C[N+]1=C2C=CC=CC=C2SC12C([N+](=O)[O-])=CC([N+](=O)[O-])=C[C-]2[N+](=O)[O-]` (centres undefined): the inhibition was inactive: 3.76%.

In the case of `Nc1ccc([As](=O)(O)c2ccc(N)cc2)cc1`, the inhibition is inactive: 1.17%. For `CC1CCN(C(=O)Oc2c(Cl)cc(Cl)c3cccnc23)CC1`, the inhibition is inactive: -2.44%. For `CN(C)C(=O)OCCc1n(C)cc[n+]1C`, the inhibition was inactive: -1.83%. Regarding `CC(C)=N/N=C(\N)N[N+](=O)[O-]`, the inhibition was inactive: 4.19%. In the case of `COc1ccc(C2=NCC(CBr)S2)cc1` (centres undefined) it was inactive: -0.864%; in that of `CCc1nc2c(n1)c1c(non1O)c1c2no[n+]1[O-]`, inactive: 2.71%; in that of `O=[N+]([O-])c1cc([N+](=O)[O-])c(CCNc2ccccc2)c([N+](=O)[O-])c1`, inactive: -3.76%. In the case of `Cc1ccc(NP(=O)(Oc2ccccc2)Oc2ccccc2)nc1` it was inactive: -0.745%.

As to `O=[N+]([O-])c1cccc2n[nH]nc12`, the inhibition was inactive: -0.441%. In the case of `CC(=O)N1C2C3N(C(C)=O)C1C1N(C(C)=O)C(C(N1C(C)=O)N3C(C)=O)N2C(C)=O` it was inactive: -0.55%; in that of `O=[N+]([O-])c1ncn(CCn2ncnc2[N+](=O)[O-])n1`, inactive: 0.167%; in that of `CC(C)(C)C(=O)NC(Sc1ccncn1)C(Cl)(Cl)Cl` (centres undefined), inactive: -2.39%. Consider `O=C(O)CNc1ccc([As](=O)(O)O)cc1`, for which the inhibition was inactive: -1.02%.

Take `O=[N+]([O-])c1cccc(NC2=NCC(CBr)S2)c1` (centres undefined): the inhibition was inactive: 0.467%. In the case of `O=C(Nc1cc([As](=O)(O)O)ccc1O)c1ccccc1` it was inactive: -0.858%; in that of `O=[As](O)(c1ccccc1)c1ccc(O)cc1`, inactive: 1.14%.

On to `O=[N+]([O-])c1ccc(O)c(/C=N/Nc2ccc([N+](=O)[O-])cc2[N+](=O)[O-])c1`, for which the inhibition was inactive: 1.6%. On to `O=[N+]([O-])c1ncn(CCn2cnc([N+](=O)[O-])n2)n1`, for which the inhibition was inactive: 0.13%. Turning to `CC(=O)NC(SC(=S)N(C)C)C(Cl)(Cl)Cl` (centres undefined), the inhibition is inactive: -0.578%. Regarding `O=C(OC1CN2CCC1CC2)c1cccc(Cl)c1` (centres undefined), the inhibition is inactive: -3.17%. Take `Nc1ccc([As](=O)(O)c2ccc([N+](=O)[O-])cc2)cc1`: the inhibition was inactive: -1.7%. With `C(Cc1nn[nH]n1)Cc1nn[nH]n1`, the inhibition is inactive: 1.35%. With `O=P(Nc1ccccn1)(c1ccc(Br)cc1)c1ccc(Br)cc1`, the inhibition is inactive: 1.04%. In the case of `CN(C)C1(CNC(=O)c2ccc(Cl)c(S(N)(=O)=O)c2)CCCCC1`, the inhibition was inactive: -1.04%. For the compound `C[C@H]1OP(=O)(Oc2ccccc2)[C@H](O)[C@H](O)[C@H]1N=[N+]=[N-]` (some centres undefined), the inhibition is inactive: 0.2%. In the case of `O=P(Nc1nc2ccccc2s1)(c1ccccc1)c1ccccc1` it was inactive: -0.337%.

`CC(C)C(=O)NC(Sc1ccccc1)C(Cl)(Cl)Cl` (centres undefined): the inhibition is inactive: 0.679%. The value for `O=P(Nc1nccs1)(c1ccccc1)c1ccccc1` was inactive: 0.848%; that for `c1nnnn1CCn1cnnn1` was inactive: -0.646%. Turning to `C[C@@H]1C=CCP(=O)(Oc2ccccc2)O1` (some centres undefined), the inhibition is inactive: 1.02%. In the case of `C[C@H]1OP(=O)(Oc2ccccc2)C[C@@H]2O[C@@H]21` (some centres undefined) it was inactive: -3.78%.

In the case of `CC(=O)c1ccc(N2CC2c2ccncc2)cc1` (centres undefined), the inhibition is inactive: 0.166%. For the compound `CC(=O)Nc1ccc(Oc2c([N+](=O)[O-])cc([N+](=O)[O-])cc2[N+](=O)[O-])cc1`, the inhibition was inactive: 0.41%. On to `CC(=O)Nc1ccc([As](=O)(O)O)c(O)c1`, for which the inhibition is inactive: 1.09%. `CCOc1ccc(C2=NCC(CBr)S2)cc1` (centres undefined): the inhibition was inactive: 1.26%.

For `O=P1(Nc2nc3ccc(Cl)cc3s2)COc2ccccc2O1` (centres undefined), the inhibition is inactive: 1.3%. Regarding `CC(C)(C)C(=O)NC(Sc1ccccc1)C(Cl)(Cl)Cl` (centres undefined), the inhibition was inactive: -0.662%. For the compound `CCC(=O)N1C2C3N(C(=O)CC)C1C1N(C(=O)CC)C(C(N1C(=O)CC)N3C(=O)CC)N2C(=O)CC`, the inhibition is inactive: 0.514%. The value for `O=C(OC1CN2CCC1CC2)c1ccccc1` (centres undefined) was inactive: -0.657%; that for `Cc1ccc(OP(=O)(Nc2ccccn2)Oc2ccc(C)cc2)cc1` was inactive: -2%. Turning to `CC(=O)NC(SC(=S)N(CC(C)C)CC(C)C)C(Cl)(Cl)Cl` (centres undefined), the inhibition was inactive: 5.98%.

On to `COC(=O)c1cc2c(s1)N=C(c1ccccc1)N(C)P2(=O)N1CCOCC1` (centres undefined), for which the inhibition is inactive: 1.2%.

Turning to `CN(C)C(=O)Oc1noc2ccccc12`, the inhibition was inactive: 0.884%. As for `Cc1ccccc1OP(=O)(Nc1ccccn1)Oc1ccccc1C`, the inhibition is inactive: 0.49%. On to `CC(NC(=O)COC(=O)C(O)(c1ccccc1)c1ccccc1)c1ccccc1` (centres undefined), for which the inhibition is inactive: -0.628%. On to `CCOC(=O)NC(Sc1ccccc1)C(Cl)(Cl)Cl` (centres undefined), for which the inhibition is inactive: 3.32%. On to `Cc1ccc(NP(=O)(Oc2cccc(C)c2)Oc2cccc(C)c2)nc1`, for which the inhibition was inactive: -0.711%. Regarding `c1ccc(-c2nn[nH]n2)c(-c2nn[nH]n2)c1`, the inhibition is inactive: 1.3%.

On to `CCNC(=S)/N=C(\N)N[N+](=O)[O-]`, for which the inhibition is inactive: -0.0976%. As to `O=C(NC1CCS(=O)(=O)C1)NP(=S)(Oc1ccccc1)Oc1ccccc1` (centres undefined), the inhibition was inactive: 1.65%. For `NC(=O)Nc1ccc([As](=O)(O)O)cc1`, the inhibition was inactive: 1.66%. `CN(C(=O)Cc1ccccc1)[C@@H]1CC[C@]2(CCCO2)C[C@H]1N1CCCC1`: the inhibition was inactive: 3.32%. `CCOP1(=S)c2c(C)nn(CCC#N)c2N=C(c2ccc(F)cc2)N1C` (centres undefined): the inhibition was inactive: 1.25%. In the case of `N#CCCN(C(=O)COC(=O)C(O)(c1ccccc1)c1ccccc1)c1ccc(F)cc1`, the inhibition was inactive: 0.285%.

On to `CN(C(=O)Cc1ccc(Cl)c(Cl)c1)[C@H]1CC[C@@]2(CCCO2)C[C@@H]1N1CCCC1`, for which the inhibition was inactive: 0.956%. As to `CN(C)C(=O)c1cc([N+](=O)[O-])cc2c1-c1c(cc([N+](=O)[O-])cc1[N+](=O)[O-])C2=O`, the inhibition was inactive: 2.37%. As for `O=[N+]([O-])c1ccc2c(c1)nnn2O`, the inhibition was inactive: 0.528%.

As for `O=P(Nc1nccs1)(c1ccccc1)c1nc2ccccc2s1` (centres undefined), the inhibition was inactive: 1.26%. In the case of `O=P(Nc1nccs1)(Oc1ccccc1)Oc1ccccc1` it was inactive: 1.06%. As to `CCOP1(=S)c2c(C)nn(CCC#N)c2N=C(c2ccccc2F)N1C` (centres undefined), the inhibition is inactive: -0.197%. Turning to `CS(=O)(=O)c1cc([N+](=O)[O-])c2no[n+]([O-])c2c1`, the inhibition was inactive: -1.08%.

As to `Nc1ccccc1[As](=O)(O)c1ccccc1`, the inhibition is inactive: 0.274%.

In the case of `O=C(O)COc1ccc([As](=O)(O)O)cc1[N+](=O)[O-]`, the inhibition is inactive: -0.143%. Take `Nc1cccc2c([As](=O)(O)O)cccc12`: the inhibition is inactive: 9.57%. In the case of `Cc1ccc(NCCc2c([N+](=O)[O-])cc([N+](=O)[O-])cc2[N+](=O)[O-])cc1` it was inactive: 0.0348%.

Take `CCCOP(=S)(Nc1nc(N)cc(=O)[nH]1)OCCC`: the inhibition is inactive: -1.97%.

`CCOP(=O)(Nc1cccc2ccccc12)OCC`: the inhibition was inactive: 3.61%. In the case of `COc1cc(C2NCCC3(OCCO3)C2(C)C)cc(OC)c1OC` (centres undefined), the inhibition is inactive: -0.666%. As for `O=C(OC1CN2CCC1CC2)c1ccc(Cl)cc1` (centres undefined), the inhibition was inactive: -1.61%.

Take `CS(=O)(=O)c1ccc(Cl)c(NC(=O)COC(=O)C(O)(c2ccccc2)c2ccccc2)c1`: the inhibition was inactive: 0.177%. As to `COc1cc(C(=O)NCC2(N3CCOCC3)CCCCC2)cc(Cl)c1OC(C)C`, the inhibition is inactive: -2.41%. In the case of `O=[As](O)(O)c1cccnc1` it was inactive: 0.75%; in that of `O=[As](O)(c1cccc(O)c1)c1cccc(O)c1`, inactive: 2.07%.

For the compound `Cc1cccc(OCC(=O)OC2CN3CCC2CC3)c1` (centres undefined), the inhibition is inactive: 0.904%.

As for `COc1ccccc1CNC(=O)COC(=O)C(O)(c1ccccc1)c1ccccc1`, the inhibition was inactive: 0.183%.

Values taken from PubChem BioAssay AID504406 (Broad Institute, 2011).
